A mixed list of measured activities; the numbers were collected in NIAID ChemDB.

Shared fields: tests in culture; agent: Candida glabrata

Blank or dashed fields: not listed here. A number after MIC or MFC names an inhibition level or a share of isolates. Rows are shuffled and stem from different studies. ECn is the concentration giving n% inhibition of infection, replication or growth.

structure | read-out | method | strain | conditions | value
CC(=O)N1CCN(c2ccc(OC[C@H]3CO[C@](Cn4ccnc4)(c4ccc(Cl)cc4Cl)O3)cc2)CC1 | EC90 | broth dilution | 40 isolates | pH 7 | 1 µg/mL
CCOc1ccc2nc3cc(N=C4NC(=O)/C(=C\c5ccc([N+](=O)[O-])o5)S4)ccc3c(N)c2c1 | MIC | broth dilution |  |  | 16.5 µg/mL
c1ccc(C(c2ccccc2)n2nnc3ccccc32)cc1 | MFC | broth dilution |  |  | >256 µg/mL
Cc1ccc(N2C(=O)C[C@@H](C)C2=O)cc1 | MIC | broth dilution / turbidity | CCC 115-2000 |  | 62.5 µg/mL
COc1ccc(C(c2ccc(OC)cc2)n2ccnc2)cc1 | MFC | broth dilution |  |  | >256 µg/mL
C[C@H]1[C@H](O)[C@@H](C)/C=C/C=C/C=C/C=C/C=C/C=C/C=C/[C@H](O[C@@H]2O[C@H](C)[C@@H](O)[C@H](N)[C@@H]2O)C[C@@H]2O[C@](O)(C[C@@H](O)C[C@@H](O)CC[C@H](O)[C@@H](O)C[C@@H](O)CC(=O)O[C@H]1C)C[C@H](O)[C@H]2C(=O)O | MIC | broth dilution / turbidity | CCC 115-2000 |  | 0.49 µg/mL
Clc1ccccc1C(c1ccccc1)(c1ccccc1)n1ccnc1 | EC90 | broth dilution | 40 isolates | pH 7 | 2 µg/mL
C[C@@H]1CC(=O)N(c2ccc(Cl)cc2)C1=O | MIC | broth dilution / turbidity | CCC 115-2000 |  | 62.5 µg/mL
CC(C)CC(O)C(=O)O | MFC100 | broth dilution / visual reading | CCUG 32725 |  | 72000 µg/mL
COc1ccc(N2C(=O)CC(C)C2=O)cc1 | MIC | broth dilution / turbidity | CCC 115-2000 |  | 125 µg/mL
c1ccc(C(c2ccccc2)n2cnc3ccccc32)cc1 | MIC90 | agar |  |  | >256 µg/mL
CCC(C)CC(C)CCCCCCCCC(=O)N[C@H]1C[C@@H](O)[C@H](NCCN)NC(=O)[C@@H]2[C@@H](O)CCN2C(=O)[C@H]([C@H](O)CCN)NC(=O)[C@H]([C@H](O)[C@@H](O)c2ccc(O)cc2)NC(=O)[C@@H]2C[C@@H](O)CN2C(=O)[C@H]([C@@H](C)O)NC1=O | MIC | broth dilution | ATCC 66032 |  | 0.5 µg/mL
CC[C@@H]([C@H](C)O)n1ncn(-c2ccc(N3CCN(c4ccc(OC[C@@H]5CO[C@@](Cn6cncn6)(c6ccc(F)cc6F)C5)cc4)CC3)cc2)c1=O | EC90 | broth dilution | 40 isolates | pH 6 | 8 µg/mL
CC(C)CC(=O)C(=O)O | MFC100 | broth dilution | CCUG 32725 |  | >72000 µg/mL
C[C@@H](c1ncncc1F)[C@](O)(Cn1cncn1)c1ccc(F)cc1F | MIC50 | broth dilution |  |  | 0.12 µg/mL
COc1ccc(C(c2ccc(OC)cc2)n2cncn2)cc1 | MIC90 | agar |  |  | >256 µg/mL
CCC(C)CC(C)CCCCCCCCC(=O)N[C@H]1C[C@@H](O)[C@H](NCCN)NC(=O)[C@@H]2[C@@H](O)CCN2C(=O)[C@H]([C@H](O)CCN)NC(=O)[C@H]([C@H](O)[C@@H](O)c2ccc(O)cc2)NC(=O)[C@@H]2C[C@@H](O)CN2C(=O)[C@H]([C@@H](C)O)NC1=O | MIC | broth dilution | 8658 |  | 2 µg/mL
C=CCc1ccc(OC)c(OC)c1 | MIC90 | turbidity | ATCC 90030 |  | 345 µg/mL
COC(=O)[C@H]1[C@@H]2C[C@@H](O[C@@H]3O[C@H](C)[C@@H](O)[C@H](N)[C@@H]3O)/C=C/C=C/C=C/C=C/C=C/C=C/C=C/[C@H](C)[C@@H](O)[C@H](C)[C@H](C)OC(=O)C[C@H](O)C[C@H](O)[C@@H](O)CC[C@H](O)C[C@H](O)C[C@](O)(C[C@@H]1O)O2 | EC90 | broth dilution | 40 isolates | pH 6 | 0.5 µg/mL

A second listing of 2 rows from above:

structure,read-out,method,strain,conditions,value
COC(=O)[C@H]1[C@@H]2C[C@@H](O[C@@H]3O[C@H](C)[C@@H](O)[C@H](N)[C@@H]3O)/C=C/C=C/C=C/C=C/C=C/C=C/C=C/[C@H](C)[C@@H](O)[C@H](C)[C@H](C)OC(=O)C[C@H](O)C[C@H](O)[C@@H](O)CC[C@H](O)C[C@H](O)C[C@](O)(C[C@@H]1O)O2,EC90,broth dilution,40 isolates,pH 6,0.5 µg/mL
CC(=O)N1CCN(c2ccc(OC[C@H]3CO[C@](Cn4ccnc4)(c4ccc(Cl)cc4Cl)O3)cc2)CC1,EC90,broth dilution,40 isolates,pH 7,1 µg/mL